Assay results reported in article PMC7540527, “Synthesis of Antiviral Perfluoroalkyl Derivatives of Teicoplanin and Vancomycin” (Chemmedchem, 2020).

System: panel of Gram-positive bacteria
Test: Antibacterial activity on a panel of Gram-positive bacteria, overall statement
Assay type: cell-based
Details: for Antibacterial activity against resistant enterococci (in words): resistant enterococci having vanA and vanB genes

Row | Structure (SMILES) | Antibacterial activity against resistant enterococci (in words) | Antibacterial activity against sensitive and resistant staphylococci (in words)
1 | CC(=O)NC1C(OC2c3ccc(c(Cl)c3)Oc3cc4cc(c3O)Oc3ccc(cc3Cl)CC3NC(=O)C(n5cc(COCCOCCCC(F)(F)C(F)(F)C(F)(F)C(F)(F)F)nn5)c5ccc(O)c(c5)Oc5cc(O)cc(c5)C(NC3=O)C(=O)NC4C(=O)NC3C(=O)NC2C(=O)NC(C(=O)O)c2cc(O)cc(O)c2-c2cc3ccc2O)OC(CO)C(O)C1O (stereo not shown) [Compound 15] | good activity | excellent antibacterial activity
2 | CC(=O)NC1C(OC2c3ccc(c(Cl)c3)Oc3cc4cc(c3O)Oc3ccc(cc3Cl)CC3NC(=O)C(n5cc(COCCOCCOCCOCCOCCCC(F)(F)C(F)(F)C(F)(F)C(F)(F)F)nn5)c5ccc(O)c(c5)Oc5cc(O)cc(c5)C(NC3=O)C(=O)NC4C(=O)NC3C(=O)NC2C(=O)NC(C(=O)O)c2cc(O)cc(O)c2-c2cc3ccc2O)OC(CO)C(O)C1O (stereo not shown) [Compound 16] | good activity | excellent antibacterial activity
